Measured values from article PMC9610207 (Viruses, 2022).

Molecular target: human Syntenin PDZ1-2
Type: binding
Settings: pH 7.5

## E66-77: synthetic FITC-labeled peptide corresponding to the C-terminus of the SARS-CoV-2 E protein (NSSRVPDLLV; FITC-labeled)
  KD, FITC-labeled SARS-CoV-2 C-terminal peptide binding to syntenin PDZ1-2: not determinable
